Assays:
[1] = molecular target: HIV-1 YU2 gp120 (full-length, clade B) (Human immunodeficiency virus type 1 group M subtype B, UniProt P35961); assay: SPR binding to immobilized YU2 gp120
[2] = system: HIV-1 (24-isolate pseudovirus panel); assay: HIV-1 Env-pseudovirus neutralization, 24-isolate panel; assay type: cell-based; conditions: Env-pseudoviruses, TZM-bl target cells
HIV-1 Clade A/E viruses = assay: Neutralization of Clade A/E HIV-1 isolates; assay type: cell-based; conditions: Clade A/E viruses with His375

With CC(C)C[C@@H]1NC(=O)CNC(=O)[C@H](CC(C)C)NC(=O)[C@H](CO)NC(=O)[C@H](CCCCN)NC(=O)[C@@H]2CSSC[C@@H](C(=O)N[C@H](C(N)=O)C(C)C)NC(=O)[C@H](C)NC(=O)[C@@H]3CSSC[C@H](NC(=O)[C@H](Cc4ccccc4)NC(=O)[C@H](Cc4c[nH]cn4)NC(=O)[C@H](CC(C)C)NC(=O)[C@H](CC(N)=O)NC(=O)CCSSC[C@H](NC(=O)[C@H](CCCNC(=N)N)NC(=O)CNC(=O)[C@H](CC(C)C)NC1=O)C(=O)N[C@@H](C)C(=O)N1CCC[C@@H]1C(=O)N[C@@H]([C@@H](C)O)C(=O)N[C@@H](Cc1ccc(OCCCCCO)cc1)C(=O)N3)C(=O)N[C@@H](CCC(N)=O)C(=O)N[C@@H](CC(C)C)C(=O)N[C@@H](CCCNC(=N)N)C(=O)N2 [M48U7] the “fold faster dissociation from gp120” value ([1]; M48U7 versus M48U1) was “about 10 times”, the kon ([1]; read-out: association rate) was 2.42e+06 M⁻¹ s⁻¹ and the koff ([1]; read-out: dissociation rate (off-rate)) was 0.000446 s⁻¹. For the same compound, the “Neutralization Breadth” value [2] was 67%, the “Neutralization Potency (geometric mean IC50)” value ([2]; single round of infection) was 5.18 µg/mL and the “neutralization of Clade A/E viruses (in words)” value (HIV-1 Clade A/E viruses) was “none of the clade A/E viruses tested in this study were neutralized”.

— PMC4140785 (Structure (London, England : 1993), 2013)
